Measurements: PubChem BioAssay AID651644 (National Center for Advancing Translational Sciences (NCATS), 2012)
Only a part is listed here, and it is no random draw. The source made the active and inactive calls. Calls come from the whole dose curve; as a rule, active = well fitted falling curve with a large enough effect; inconclusive = small, poorly fitted or top-dose-only effect; inactive = no such curve, though single readings can be large or run the other way.

Assay: qHTS Assay for Inhibitors of the HIV-1 protein Vpr; note: nearly all actives have a fitted effect of over 50% in size
Conditions: S. pombe RE007 Vpr strain, BacTiter-Glo ATP luminescence, 24 h; at 92.2 µM (top of the series)
% is set by controls: 0 for no effect and ±100 for the full control effect.

SMILES	activity change, negative = less growth
CN(C(=O)Cc1ccc(Cl)c(Cl)c1)[C@H]1CCCC[C@H]1N1CCCC1	inactive: -13.2%
Cc1cc(C)cc(OP(C)(N)=O)c1 (configuration not stated)	inactive: -11.9%
